From patent publication US4740501A (priority 1985, dated 1988)
Values joined by “and” are separate entries in the source; they are usually repeats but may differ in a detail not shown here. Equal entries are not always repeated.

How the values were obtained:
MMTV polypeptides = assay: Polypeptide composition of extracellular MMTV (NaDodSO4-PAGE); format: cell-based, mouse; conditions: 15 uM
MMTV = MMTV production by MJY-alpha cells (radiolabel in purified virus); format: cell-based, mouse; conditions: 15.0 uM

L-phenyl-alanine mustard
polypeptide profiles of MMTV vs virions from control monolayers (MMTV polypeptides; 24 and 48 hour): relatively similar
p 24, figure in brackets (level relative to control) (MMTV polypeptides; [3H] Leu (0-24 hr)): 80.2%
p 24, figure in brackets (level relative to control) (MMTV polypeptides; [35S] met (24-48 hr)): 81.4
Relative level of MMTV produced (%) (MMTV; 24 hours): 71.7%
Relative level of MMTV produced (%) (MMTV; 48 hours): 97% and 96.5%
